Legend:
[1] = system: O=C(O)[C@@H]1C[C@@H](O)CN1; assay: purified protein; settings: 37.0 °C
[2] = system: O=C(O)[C@H]1C[C@@H](O)CN1; assay: purified protein; settings: 37.0 °C

Substance	Km [1] [mM]	Km [2] [mM]
BsHyPRE (Brucella suis 1330)	7.6	10.8
BmHyPRE (Brucella melitensis bv. 1 str. 16M)	9.0	12.7
BaHyPRE (BaSeq1, PrpA) (Brucella abortus 2308)	9.8	10.8
BpHyPRE (Burkholderia pseudomallei K96243)	14.4	17.1

Reference: publication PMC1964878
